Literature values, collected in publication PMC13065029 (PLOS One, 2026).
Where two headings read alike, the source gives them in different places.

Key:
CHIKV nsP2^pro [1] = biological target: T1, CHIKV nsP2^pro (Chikungunya virus, UniProt Q8JUX6); conditions: cited from earlier work
CHIKV nsP2^pro [2] = biological target: T1, CHIKV nsP2^pro; conditions: read-out: IC₅₀; FRET; ref [69]; cited from earlier work
CHIKV nsP2^pro [3] = biological target: T1, CHIKV nsP2^pro; conditions: fluorometry; ref [69]; cited from earlier work

SMILES | Inhibition Mode (CHIKV nsP2^pro [1]; ref [60]) | IC50 (CHIKV nsP2^pro [2]) [µM] | Kd (CHIKV nsP2^pro [3]) [µM] | Inhibition Mode (CHIKV nsP2^pro [1]; ref [69])
CCOc1ccccc1-c1cc(C(=O)NC/C=C/S(C)(=O)=O)[nH]n1 | Covalent (Cys- binding) | – | – | –
Cc1nc2ccccc2n1CN1C(=O)C(=NNC(N)=S)c2ccccc21 | – | 32 | 6.1 | Competitive
